Measurements reported in publication PMC9239164.

Biological target: T1, MBP-IE2 DBD (UniProt Q6SWP7)
T1 sequence (looked up): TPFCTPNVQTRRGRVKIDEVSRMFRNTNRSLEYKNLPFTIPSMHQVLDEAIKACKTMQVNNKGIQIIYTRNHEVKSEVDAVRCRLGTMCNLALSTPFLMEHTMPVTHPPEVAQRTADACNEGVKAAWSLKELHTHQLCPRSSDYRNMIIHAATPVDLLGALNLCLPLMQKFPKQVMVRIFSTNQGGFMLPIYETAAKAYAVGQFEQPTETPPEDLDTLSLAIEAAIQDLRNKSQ
Assay: EMSA (silver stain, native PAGE)
Details: 300 nM DBD, probe titrated 2.5-7500 nM; 25 mM HEPES pH 7.8, 100 mM NaCl, 0.01% Triton X-100, 1 mM DTT, room temperature 10 min; 4% native PAGE in 0.5x Tris-glycine; recombinant protein; residues 346-579; protein details: N-terminal MBP-linker-TEV site, C-terminal 6xHis; label: none (silver stain)

“GTCCGGTTTGCAAACCGTAG (double strand) [ideal palindromic IE2 site probe]”: binds.

For at least one entry, the source does not settle the construct or the ends of the probe. Tags and fusion partners may be left off the protein sequences shown.
